Measured values from several laboratories, pooled; numbers as filed in NIAID ChemDB.

Common to all: growth or infection tests; organism: Cryptococcus neoformans; measure: MIC80

A number after MIC or MFC names an inhibition level or a share of isolates.

structure,strain,read by,value
C[C@@H](N1CCN(Cc2cn(Cc3ccc(Cl)cc3)c3c(F)cccc23)CC1)[C@](O)(Cn1cncn1)c1ccc(F)cc1F,ATCC 36556,resazurin,>128 µg/mL
CCCCN(Cc1cn(Cc2ccc(Br)cc2)nn1)CC(O)(Cn1cncn1)c1ccc(F)cc1F,-,-,>64 µg/mL
COc1ccc(/C=C/C(=O)OC2CCN(CC(O)(Cn3cncn3)c3ccc(F)cc3F)CC2)cc1OC,BLS108,broth dilution,0.473 µM
C[C@@H](N1CCN(Cc2cn(Cc3ccc(F)cc3F)c3ccc(C#N)cc23)CC1)[C@](O)(Cn1cncn1)c1ccc(F)cc1F,ATCC 36556,resazurin,>128 µg/mL
COc1ccc(/C=C/C(=O)OC2CCN(CC(O)(Cn3cncn3)c3ccc(F)cc3F)CC2)cc1,BLS108,broth dilution,0.502 µM
OC(CN1CCN(c2ccc(OCc3ccncc3)cc2)CC1)(Cn1cncn1)c1ccc(F)cc1F,BLS74A,-,0.5 µg/mL
CC(=O)OC1CCN(CC(O)(Cn2cncn2)c2ccc(F)cc2F)CC1,BLS108,broth dilution,0.658 µM
N=C(N)c1ccc(NCCCNc2ccc(C(=N)N)cc2[N+](=O)[O-])c([N+](=O)[O-])c1,119.95,-,1.56 µg/mL
CCCCCCCCNC1NCCC2c3ccc(OC)cc3CCN12,NFI3102,-,2 µg/mL
Cn1nc(Cc2ccc(Cl)cc2)c2ccccc2c1=O,Clinical isolate (IM 000319),broth dilution,62.5 µg/mL
N=C(N)c1ccc(OCCCCC(=O)O)cc1,H99,-,>100 µg/mL
CN=[N+]([O-])CC[C@H](N)C(=O)O,MTU 13001,-,>200 µg/mL
O=C(/C=C/c1ccc([N+](=O)[O-])cc1)OC1CCN(CC(O)(Cn2cncn2)c2ccc(F)cc2F)CC1,BLS108,broth dilution,0.122 µM
CCCCCCCCOc1ccc(NC(=O)C(COC(C)(C)C)NC(=O)[C@]2(O)C[C@@H](O)C(O)[C@H](OC(=O)/C=C/c3ccc(O)c(O)c3)C2)cc1,ATCC 32045,-,1 µg/mL
CCCCN(Cc1cn(Cc2c(Cl)cccc2Cl)nn1)CC(O)(Cn1cncn1)c1ccc(F)cc1F,-,-,>64 µg/mL
C[C@@H](N1CCN(Cc2cn(Cc3ccc(C(F)(F)F)cc3)c3ccccc23)CC1)[C@](O)(Cn1cncn1)c1ccc(F)cc1F,ATCC 36556,resazurin,>128 µg/mL
Cc1ccc(NC(=O)CN(C)CC(O)(Cn2cncn2)c2ccc(F)cc2F)cc1,-,-,4 µg/mL
N=C(N)c1ccc(O)cc1,H99,-,>100 µg/mL
C[C@@H](n1ncc2cc(Cl)ccc21)[C@](O)(Cn1cncn1)c1ccc(F)cc1F,ATCC 24065,-,0.032 µg/mL
Cc1ccc(/C=C2\SC(=O)N(CC(O)(Cn3nccn3)c3ccc(F)cc3F)C2=O)c(C)c1,CNCYP51,-,8.5 µg/mL
OC(CN=C1CCN(CCCCCOc2ccccc2)CC1)(Cn1cncn1)c1ccc(F)cc1F,-,-,>129 µM
CCC(C)CC(C)/C=C(C)/C=C/CC(C)C(O)C(C)/C=C(C)/C=C/C(O)C(C)c1cc(O)c(C2OC(CO)CC(O)C2O)c(=O)o1,TIMM0362,-,1.56 µg/mL
COc1ccc2c(c1)CCN1C(NCCCCCC=C(C)C)NCCC21,NFI3102,-,8 µg/mL
CCCCN(Cc1cn(Cc2ccc([N+](=O)[O-])cc2)nn1)CC(O)(Cn1cncn1)c1ccc(F)cc1F,-,-,64 µg/mL
COc1ccc(/C=C2\SC(=O)N(CC(O)(Cn3nccn3)c3ccc(F)cc3F)C2=O)cc1,-,-,4.23 µg/mL
C[C@@H](n1ncc2cccc([N+](=O)[O-])c21)[C@](O)(Cn1cncn1)c1ccc(F)cc1F,ATCC 24065,-,0.125 µg/mL
N=C(N)c1ccc(OCCCCCO)cc1,H99,-,>100 µg/mL
CCCCN(Cc1cn(Cc2ccc(Cl)cc2)nn1)CC(O)(Cn1cncn1)c1ccc(F)cc1F,-,-,2 µg/mL
C[C@@H](N1CCN(Cc2cn(Cc3ccc(F)cc3)c3c(Cl)cccc23)CC1)[C@](O)(Cn1cncn1)c1ccc(F)cc1F,ATCC 36556,resazurin,>128 µg/mL
O=C(Cc1ccccc1)OC1CCN(CC(O)(Cn2cncn2)c2ccc(F)cc2F)CC1,BLS108,broth dilution,0.137 µM
CCN(Cc1cn(Cc2cccc(F)c2)nn1)CC(O)(Cn1cncn1)c1ccc(F)cc1F,-,-,1 µg/mL
CN(CCCCCOc1ccccc1)CC(O)(Cn1cncn1)c1ccc(F)cc1F,-,-,0.15 µM
CN(CCOc1ccc(CC2SC(=O)N(CC(O)(Cn3nccn3)c3ccc(F)cc3F)C2=O)cc1)c1ccccn1,CNCYP51,-,13.45 µg/mL
CCCCCCCCNC1NCCC2c3ccccc3CCN12,NFI3102,-,4 µg/mL
Cc1nn(-c2ccccc2)c2nc3nc4c(c(N)c3c(-c3ccc(Cl)cc3)c12)CCCC4,ATCC 32264,broth dilution / absorbance,>250 µg/mL
N=C(N)c1ccc(OCCCC(O)COc2ccc(C(=N)N)cc2)cc1,133.95,-,0.39 µg/mL
CCCCN(Cc1cn(Cc2cccc([N+](=O)[O-])c2)nn1)CC(O)(Cn1cncn1)c1ccc(F)cc1F,-,-,64 µg/mL
CCCCCCCCCCCCCCN1CCc2cc(O)c(O)cc2C1,-,-,100 µg/mL
CC(C)CCCCCCNC1NCCC2c3ccccc3CCN12,NFI3102,-,2 µg/mL
N=C(N)c1ccc2nc(CCCCc3nc4ccc(C(=N)N)cc4[nH]3)[nH]c2c1,H99,-,>100 µg/mL
C[C@@H](N1CCN(Cc2cn(Cc3ccc(F)cc3F)c3c(Cl)cccc23)CC1)[C@](O)(Cn1cncn1)c1ccc(F)cc1F,ATCC 36556,resazurin,>128 µg/mL
C[C@@H](c1ncncc1F)[C@](O)(Cn1cncn1)c1ccc(F)cc1F,-,-,0.18 µM
CC(C)N=C(N)c1ccc2nc(-c3ccc(CCc4ccc(-c5nc6ccc(C(N)=NC(C)C)cc6[nH]5)cc4)cc3)[nH]c2c1,119.95,-,0.19 µg/mL
CCCCN(Cc1cn(Cc2ccc(F)cc2)nn1)CC(O)(Cn1cncn1)c1ccc(F)cc1F,-,-,2 µg/mL
O=C(/C=C/c1ccccc1Br)OC1CCN(CC(O)(Cn2cncn2)c2ccc(F)cc2F)CC1,BLS108,broth dilution,0.458 µM
C[C@@H](n1cc2c([N+](=O)[O-])cccc2n1)[C@](O)(Cn1cncn1)c1ccc(F)cc1F,ATCC 24065,-,0.063 µg/mL
N=C(N)c1ccc(OCCCCCCOc2ccc(C(=N)N)cc2)cc1,H99,-,6.25 µg/mL
CCCCN(Cc1cn(Cc2ccccc2C#N)nn1)CC(O)(Cn1cncn1)c1ccc(F)cc1F,-,-,64 µg/mL
CN1CCN(c2n[nH]c(N3C(=O)CS[C@@H]3c3ccc4c(c3)OCO4)n2)CC1,H99,broth dilution,1.56 µg/mL
O=C(OC1CCN(CC(O)(Cn2cncn2)c2ccc(F)cc2F)CC1)C(F)(F)F,BLS108,broth dilution,36.9 µM
Cc1ccc(-c2c3c(N)c4c(nc3nc3c2c(C)nn3-c2ccccc2)CCC4)cc1,ATCC 32264,broth dilution / absorbance,250 µg/mL
CN(CCCCOc1ccccc1)CC(O)(Cn1cncn1)c1ccc(F)cc1F,-,-,0.15 µM
CN(CC(=O)Nc1cccc([N+](=O)[O-])c1)CC(O)(Cn1cncn1)c1ccc(F)cc1F,-,-,64 µg/mL
COc1ccc(-c2c3c(N)c4c(nc3nc3c2c(C)nn3-c2ccccc2)CCCC4)cc1,ATCC 32264,broth dilution / absorbance,125 µg/mL
CC(O)Cn1cc(CN2CCN([C@H](C)[C@](O)(Cn3cncn3)c3ccc(F)cc3F)CC2)c2cccc(Cl)c21,ATCC 36556,resazurin,>128 µg/mL
CCCCN(Cc1cn(Cc2cccc(F)c2)nn1)CC(O)(Cn1cncn1)c1ccc(F)cc1F,-,-,1 µg/mL
Cc1nn(-c2ccccc2)c2nc3nc4c(c(N)c3c(-c3ccc(Cl)cc3)c12)CCC4,ATCC 32264,broth dilution / absorbance,250 µg/mL
OC(CN=C1CCN(CCCOc2ccccc2)CC1)(Cn1cncn1)c1ccc(F)cc1F,-,-,>136 µM

The last 4 rows once more:

CC(O)Cn1cc(CN2CCN([C@H](C)[C@](O)(Cn3cncn3)c3ccc(F)cc3F)CC2)c2cccc(Cl)c21 ; strain: ATCC 36556 ; read by: resazurin ; value: >128 µg/mL
CCCCN(Cc1cn(Cc2cccc(F)c2)nn1)CC(O)(Cn1cncn1)c1ccc(F)cc1F ; value: 1 µg/mL
Cc1nn(-c2ccccc2)c2nc3nc4c(c(N)c3c(-c3ccc(Cl)cc3)c12)CCC4 ; strain: ATCC 32264 ; read by: broth dilution / absorbance ; value: 250 µg/mL
OC(CN=C1CCN(CCCOc2ccccc2)CC1)(Cn1cncn1)c1ccc(F)cc1F ; value: >136 µM

Blank or dashed fields: not listed here. Lines come from different laboratories, so protocols vary.